Anti-infective test results gathered from many reports (values: NIAID ChemDB through PubChem).

Common to all: tests on isolated targets; agent: HIV-1; protein: Reverse transcriptase; endpoint: fold resistance

Neighbouring rows are from separate reports.

smiles	changes	strain or isolate	read by	result
CCN1c2ncc(CCOc3ccc(S(=O)(=O)NC(C)=O)c4ccccc34)cc2C(=O)N(C)c2cccnc21	RT-Y188L	-	nucleotide incorporation / radiometric	>10
Cc1occc1C(=S)Nc1ccc(Cl)c(C(=O)OCC2CC2)c1	RT-Y188H	-	nucleotide incorporation / radiometric	>8.33
CCc1ccc(-n2c(Br)nnc2SCC(=O)Nc2ccc(C(=O)N[C@H](C(=O)OC)C(C)C)cc2Cl)c2ccccc12	RT-Y181C	-	nucleotide incorporation / radiometric	<1
Cc1cc(S(N)(=O)=O)ccc1NC(=O)CSc1nnc(C)n1-c1ccc(C)c2c1CCCC2	RT-Y188L	-	nucleotide incorporation / radiometric	>2
Cc1cc(C)cc(S(=O)(=O)c2c(C(N)=O)[nH]c3ccc(F)c(F)c23)c1	RT-K103N	-	nucleotide incorporation / radiometric	340.9
CC(C)=CCOc1cc(NC(=S)c2ccsc2C)ccc1Cl	RT-Y188L	-	-	175
Cc1ccc(-n2c(SCC(=O)Nc3ccc(S(=O)(=O)NC(C)C(=O)O)cc3Cl)nnc2C(F)F)c2c1CCCC2	RT-Y188L	-	nucleotide incorporation / radiometric	>2
CCN1c2ncc(CCOc3cccc4c3ccc[n+]4[O-])cc2C(=O)N(C)c2ccc(Cl)nc21	RT-Y181C	-	nucleotide incorporation / radiometric	3.1
Cc1cc(S(N)(=O)=O)ccc1NC(=O)COc1ccccc1C(=O)c1cc(Cl)cc(C#N)c1	RT-Y181C	NNRTI-resistant	fluorescence	1.6
CCN1c2ncc(CCOc3ccc(-c4cc(C)[n+]([O-])c(C)c4)cc3C)cc2C(=O)N(C)c2cccnc21	RT-K103N Y181C	IIIB	nucleotide incorporation / radiometric	1
Cc1ccc2c(C)cc(C)c(-n3c(SCC(=O)Nc4ccc(S(N)(=O)=O)cc4Cl)nnc3C(F)F)c2n1	RT-Y181C	-	nucleotide incorporation / radiometric	>1
CC(C)=CCOc1cc(NC(=S)c2ccoc2C)ccc1Cl	RT-Y181I	-	-	2.97
CCc1cc(C2CC2)ccc1-n1c(Br)nnc1SCC(=O)Nc1ccc(C(=O)O)cc1Cl	RT-Y188L	-	nucleotide incorporation / radiometric	>2
CCN1c2ncc(CCc3ccncc3)cc2C(=O)N(C)c2ccc(Cl)nc21	RT-Y181C	IIIB	RT activity	1.5
CC(C)=CCN1Cc2cccc3[nH]c(=S)n(c23)C[C@@H]1C	RT-Y181C	-	nucleotide incorporation	11.3
NS(=O)(=O)c1ccc(NC(=O)CSc2nnc(C(F)F)n2-c2ccc(C3CCCC3)c3ccccc23)c(Cl)c1	RT-Y188L	-	nucleotide incorporation / radiometric	>2
CCN1c2ncc(CCOc3ccc(-c4cc(C(=O)O)c[n+]([O-])c4)cc3C)cc2C(=O)N(C)c2cccnc21	RT-K103N Y181C	IIIB	nucleotide incorporation / radiometric	1
Cc1cc(C(=O)O)ccc1NC(=O)CSc1nnc(C(F)F)n1-c1ccc(C)c2c1CCCC2	RT-Y181C	-	nucleotide incorporation / radiometric	>2
CCN1c2ncccc2NC(=O)c2cc(CCOc3ccc(-c4cc(OC)c(O)c(C(=O)O)c4)cc3C)cnc21	RT-K103N Y181C	IIIB	nucleotide incorporation / radiometric	1
Cc1cc(C2CC2)cc(Cl)c1-n1c(Br)nnc1SCC(=O)Nc1ccc(S(N)(=O)=O)cc1Cl	RT-Y188L	-	nucleotide incorporation / radiometric	>2
C=Cc1cc(N(CC)CC)nc(S(C)(=O)=O)n1	RT-Y181I	-	nucleotide incorporation / radiometric	>114
CCc1ccc(-n2c(Br)nnc2SCC(=O)Nc2ccc(S(N)(=O)=O)cc2Cl)c2c1CCCC2	RT-Y188L	-	nucleotide incorporation / radiometric	>1
CCN1c2ncc(CCOc3ccc(C(=O)NCC4(C(=O)O)CCCC4)cc3C)cc2C(=O)N(C)c2cccnc21	RT-K103N Y181C	IIIB	nucleotide incorporation / radiometric	>2
N#Cc1cccc2c(-n3c(SCC(=O)Nc4ccc(S(N)(=O)=O)cc4Cl)nnc3C(F)F)cccc12	RT-Y181C	-	nucleotide incorporation / radiometric	>1
C=Cc1cc(N(C)C)nc(SCc2ccc(OC)cc2)n1	RT-Y181I	-	nucleotide incorporation / radiometric	>1.23
Cc1ccc(-n2c(SCC(=O)Nc3ccc(C(=O)O)cc3Cl)nnc2C(F)F)c2c1CCCC2	RT-Y188L	-	nucleotide incorporation / radiometric	>2
CCc1ccc(-n2c(Br)nnc2SCC(=O)Nc2ccc(S(N)(=O)=O)cc2Cl)c2ccccc12	RT-Y188L	-	nucleotide incorporation / radiometric	>1
Cc1occc1C(=S)Nc1ccc(Cl)c(/C=N/OC(C)(C)C)c1	RT-V106A	-	nucleotide incorporation / radiometric	3
CCN1c2ncc(CCc3ccccc3)cc2C(=O)N(C)c2cccnc21	RT-Y188L RT-Y181C	IIIB	RT activity	>>20
CCN1c2ncc(CCOc3ccc(CCC(=O)O)c4c3CCCC4)cc2C(=O)N(C)c2ccc(Cl)nc21	RT-Y188L	-	nucleotide incorporation / radiometric	1–10
COc1cccc2c(-n3c(Br)nnc3SCC(=O)Nc3ccc(C(=O)O)cc3Cl)cccc12	RT-Y188L	-	nucleotide incorporation / radiometric	>2
C=CCO/N=C/c1cc(NC(=S)c2ccoc2C)ccc1Cl	RT-L108I	-	nucleotide incorporation / radiometric	>8.33
CCN1c2ncc(CCOc3ccc(-c4ccc(Cl)c(C(=O)O)c4)cc3C)cc2C(=O)N(C)c2cccnc21	RT-K103N Y181C	IIIB	nucleotide incorporation / radiometric	>1
CCOC(=O)CCNC(=O)c1ccc(NC(=O)CSc2nnc(Br)n2-c2ccc(CC)c3ccccc23)c(Cl)c1	RT-Y188L	-	nucleotide incorporation / radiometric	>1
CCN1c2ncc(CCOc3ccc(C(=O)O)c4c3CCN(S(C)(=O)=O)C4)cc2C(=O)N(C)c2cccnc21	RT-V106A	-	nucleotide incorporation / radiometric	>10
CCc1ccc(-n2c(Br)nnc2SCC(=O)Nc2ccc(C(=O)NCC(=O)OC)cc2Cl)c2ccccc12	RT-Y188L	-	nucleotide incorporation / radiometric	>1
COC(=O)[C@H](CC(C)C)NC(=O)c1ccc(NC(=O)CSc2nnc(Br)n2-c2ccc(C3CC3)c3ccccc23)c(Cl)c1	RT-Y188L	-	nucleotide incorporation / radiometric	>1
Cc1cc(C)cc(S(=O)(=O)c2c(C(N)=O)[nH]c3ccc(Cl)cc23)c1	RT-L100I	-	nucleotide incorporation / radiometric	20
CCc1ccc(-n2c(SCC(=O)Nc3ccc(S(N)(=O)=O)cc3C)nnc2C(F)F)c2ccccc12	RT-Y188L	-	nucleotide incorporation / radiometric	>2
CCN1c2ncc(CCOc3ccc(CC(=O)O)c4ccccc34)cc2C(=O)N(C)c2ccc(Cl)nc21	RT-V106A	-	nucleotide incorporation / radiometric	>10
CCc1ccc(-n2c(SCC(=O)Nc3ccc(C(=O)O)cc3Cl)nnc2C(F)F)c2ccccc12	RT-Y188L	-	nucleotide incorporation / radiometric	>2
CCc1ccc(-n2c(SCC(=O)Nc3ccc(C(=O)O)cc3C)nnc2C(F)F)c2ccccc12	RT-Y181C	-	nucleotide incorporation / radiometric	>2

The last 3 rows once more:

smiles	changes	strain or isolate	read by	result
CCN1c2ncc(CCOc3ccc(CC(=O)O)c4ccccc34)cc2C(=O)N(C)c2ccc(Cl)nc21	RT-V106A	-	nucleotide incorporation / radiometric	>10
CCc1ccc(-n2c(SCC(=O)Nc3ccc(C(=O)O)cc3Cl)nnc2C(F)F)c2ccccc12	RT-Y188L	-	nucleotide incorporation / radiometric	>2
CCc1ccc(-n2c(SCC(=O)Nc3ccc(C(=O)O)cc3C)nnc2C(F)F)c2ccccc12	RT-Y181C	-	nucleotide incorporation / radiometric	>2

Fold resistance: result on the changed form divided by that on wild type. Blank or dashed fields: not listed here. Two numbers with a dash give a range or band.